Source: patent US20230346797A1, “INHIBITORS OF THE PLASMODIAL SURFACE ANION CHANNEL AS ANTIMALARIALS” (The United States of America,as represented by the …, priority 2008, published 2023)

Test system: P. falciparum
Assay: In vitro parasite growth inhibition, SYBR Green I-based fluorescence assay for parasite nucleic acid
Conditions: read-out: In vitro growth inhibitory IC50; 3 days culture

## CCCCN(CC)C(=O)c1cc2cc3ccc(C)cc3nc2o1
  IC50: 9 µM
